{"source": "paper PMC8746574", "about": "(Molecules, 2022)", "tested_on": "TZM-bl cells", "assay": "MTT cytotoxicity assay in TZM-bl cells", "assay_type": "cell-based", "conditions": "MTT test, 72 h incubation", "procedure": "The cytotoxicity of the obtained compounds was assessed in TZM-bl cells using the MTT test. The preparations were diluted with DMEM medium so that their starting concentration was 1000 μM and the final volume of DMSO was no more than 1%. Additionally, we compared the cytotoxicity of DMEM and medium with 1% DMSO in TZM-bl cells and found no significant differences in cell survival. The measured CC50 values ranged from 7.8 to over 1000 μM (Table 2). […] A range of non-toxic concentrations was determined for each compound and used in subsequent experiments on their antiviral activity.\nTZM-bl cells were seeded into 96-well culture plates (100 μL of cell suspension or 10^4 p cells per well) and placed in a CO2 incubator. The test compounds were dissolved in DMSO at a concentration of 100 mM. After 24 h of incubation, various concentrations of the test compounds (1000, 500, 250, 125, 62.5, 31.25, and 15.6 μM) were added by titration to the TZM-bl cell culture, in triplicates. DMSO was added to the control wells at a concentration of no more than 1%. […] The optical density of each well was determined at 570 nm using a Varioscan LUX plate reader (Thermo scientific). The survival rate of TZM-bl cells in the presence of the tested compounds was calculated using the formula: (OD of experimental wells—OD of medium)/(OD of control wells—OD of medium) × 100%, where OD is optical density."}
{"substance": "Maraviroc [MVC]", "values": [{"measurement": "CC50", "result": "> 1", "unit": "mM"}]}
